Data as given in PubChem BioAssay AID1259414 (Drosophila RNAi Screening Center, 2018).

Aim: 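Host factors increasing or decreasing Wolbachia levels in cultured fly cells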 (primary screen)
Cell system: Drosophila JW18 cells infected with Wolbachia
Reagents: long dsRNA against Drosophila genes, 0.25 µg dsRNA per well of a 384-well plate
Time to read-out: 5 days
Challenge: cells persistently infected with Wolbachia before knock-down; no added drug
Measured: 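Automated imaging of bacterial rRNA staining divided by host cell count, reported as plate-normalised robust z-score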
Reading the numbers: Wolbachia per cell robust z: higher = more Wolbachia per host cell than the plate typical
Active means: 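Active if absolute robust z reaches 1.5 in two or more of three replicates, leaving out multi- or no-target dsRNAs, genes unexpressed in JW18 and A1 wells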
The screen tested about 24,000 reagents; this is an unselected part of those that have a named target and a result. Over the whole deposit, about 1,210 (5%) are marked active. 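Inactive calls also include excluded dsRNAs with several or no targets, genes unexpressed in JW18, and well A1, regardless of score.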 The numbers tell different reagents against one gene apart. Names joined by + are all predicted targets of the reagent.

CG31805 — Wolbachia per cell robust z, rep 1: 1.31; Wolbachia per cell robust z, rep 2: -0.497; Wolbachia per cell robust z, rep 3: 0.607; Outcome: inactive
MEP-1 + CG42245 — Wolbachia per cell robust z, rep 1: -0.647; Wolbachia per cell robust z, rep 2: -0.749; Wolbachia per cell robust z, rep 3: 0.0423; Outcome: inactive
RpL5 #1 — Wolbachia per cell robust z, rep 1: 2.04; Wolbachia per cell robust z, rep 2: 2.28; Wolbachia per cell robust z, rep 3: 2.57; Outcome: active
RpL5 #2 — Wolbachia per cell robust z, rep 1: -0.307; Wolbachia per cell robust z, rep 2: 0.185; Wolbachia per cell robust z, rep 3: 1.62; Outcome: inactive
Ccp84Aa #1 — Wolbachia per cell robust z, rep 1: -0.62; Wolbachia per cell robust z, rep 2: -0.372; Wolbachia per cell robust z, rep 3: -0.382; Outcome: inactive
Ccp84Aa #2 — Wolbachia per cell robust z, rep 1: 0.347; Wolbachia per cell robust z, rep 2: 0.0359; Wolbachia per cell robust z, rep 3: 1.25; Outcome: inactive
CG31668 — Wolbachia per cell robust z, rep 1: 0.472; Wolbachia per cell robust z, rep 2: 0.408; Wolbachia per cell robust z, rep 3: -0.0182; Outcome: inactive
tst + CG10375 — Wolbachia per cell robust z, rep 1: -9.8; Wolbachia per cell robust z, rep 2: 1.49; Wolbachia per cell robust z, rep 3: -1.36; Outcome: inactive
CG13004 — Wolbachia per cell robust z, rep 1: -0.21; Wolbachia per cell robust z, rep 2: 0.283; Wolbachia per cell robust z, rep 3: -2.67; Outcome: inactive
Gbeta76C — Wolbachia per cell robust z, rep 1: -2.56; Wolbachia per cell robust z, rep 2: -0.156; Wolbachia per cell robust z, rep 3: 0.466; Outcome: inactive
Mayo — Wolbachia per cell robust z, rep 1: -1.12; Wolbachia per cell robust z, rep 2: -1.72; Wolbachia per cell robust z, rep 3: 0.218; Outcome: inactive
Gasz #1 — Wolbachia per cell robust z, rep 1: 0.14; Wolbachia per cell robust z, rep 2: 0.31; Wolbachia per cell robust z, rep 3: -0.974; Outcome: inactive
Gasz #2 — Wolbachia per cell robust z, rep 1: -2.05; Wolbachia per cell robust z, rep 2: -0.643; Wolbachia per cell robust z, rep 3: -1.71; Outcome: active
krz — Wolbachia per cell robust z, rep 1: 0.138; Wolbachia per cell robust z, rep 2: 0.323; Wolbachia per cell robust z, rep 3: -2.08; Outcome: inactive
BomT1 — Wolbachia per cell robust z, rep 1: -0.593; Wolbachia per cell robust z, rep 2: 0.192; Wolbachia per cell robust z, rep 3: -1.22; Outcome: inactive
CG6244 — Wolbachia per cell robust z, rep 1: -0.246; Wolbachia per cell robust z, rep 2: 0.236; Wolbachia per cell robust z, rep 3: -1.43; Outcome: inactive
CG9822 — Wolbachia per cell robust z, rep 1: 0.207; Wolbachia per cell robust z, rep 2: -1.36; Wolbachia per cell robust z, rep 3: -0.955; Outcome: inactive
Polr1A — Wolbachia per cell robust z, rep 1: -6; Wolbachia per cell robust z, rep 2: -0.644; Wolbachia per cell robust z, rep 3: 1.15; Outcome: inactive
CG4210 #1 — Wolbachia per cell robust z, rep 1: 0.0551; Wolbachia per cell robust z, rep 2: -0.569; Wolbachia per cell robust z, rep 3: -0.269; Outcome: inactive
CG4210 #2 — Wolbachia per cell robust z, rep 1: -5.24; Wolbachia per cell robust z, rep 2: -1.91; Wolbachia per cell robust z, rep 3: -0.651; Outcome: active
Rbp1 — Wolbachia per cell robust z, rep 1: -0.795; Wolbachia per cell robust z, rep 2: -6.43; Wolbachia per cell robust z, rep 3: -0.0493; Outcome: inactive
CG33278 #1 — Wolbachia per cell robust z, rep 1: -0.997; Wolbachia per cell robust z, rep 2: -2.8; Wolbachia per cell robust z, rep 3: -0.208; Outcome: inactive
CG33278 #2 — Wolbachia per cell robust z, rep 1: 1.25; Wolbachia per cell robust z, rep 2: -0.841; Wolbachia per cell robust z, rep 3: -0.068; Outcome: inactive
CG12111 #1 — Wolbachia per cell robust z, rep 1: 0.217; Wolbachia per cell robust z, rep 2: -4.53; Wolbachia per cell robust z, rep 3: 0.813; Outcome: inactive
CG12111 #2 — Wolbachia per cell robust z, rep 1: 0.32; Wolbachia per cell robust z, rep 2: -0.141; Wolbachia per cell robust z, rep 3: -2.11; Outcome: inactive
Mcm7 #1 — Wolbachia per cell robust z, rep 1: 0.304; Wolbachia per cell robust z, rep 2: 0.184; Wolbachia per cell robust z, rep 3: 1.16; Outcome: inactive
Mcm7 #2 — Wolbachia per cell robust z, rep 1: 1.4; Wolbachia per cell robust z, rep 2: -0.00248; Wolbachia per cell robust z, rep 3: 0.721; Outcome: inactive
CG17122 #1 — Wolbachia per cell robust z, rep 1: -0.959; Wolbachia per cell robust z, rep 2: -3.19; Wolbachia per cell robust z, rep 3: -0.934; Outcome: inactive
CG17122 #2 — Wolbachia per cell robust z, rep 1: 0.475; Wolbachia per cell robust z, rep 2: 0.819; Wolbachia per cell robust z, rep 3: 0.873; Outcome: inactive
kappaTry — Wolbachia per cell robust z, rep 1: 0.596; Wolbachia per cell robust z, rep 2: -1.15; Wolbachia per cell robust z, rep 3: -2.71; Outcome: inactive

Records listed so far called active:
RpL5 #1 — Wolbachia per cell robust z, rep 1: 2.04; Wolbachia per cell robust z, rep 2: 2.28; Wolbachia per cell robust z, rep 3: 2.57; Outcome: active
Gasz #2 — Wolbachia per cell robust z, rep 1: -2.05; Wolbachia per cell robust z, rep 2: -0.643; Wolbachia per cell robust z, rep 3: -1.71; Outcome: active
CG4210 #2 — Wolbachia per cell robust z, rep 1: -5.24; Wolbachia per cell robust z, rep 2: -1.91; Wolbachia per cell robust z, rep 3: -0.651; Outcome: active
